From article PMC7156659 (2020) come the findings set out here.

Several values for one entry are separate records, joined by “and”; a condition that tells them apart may be missing. Equal values may be shown once.

In this assay the target is Lpg2149 (L. pneumophila, UniProt Q5ZTL2 1-119). Kind of assay: ITC. In general terms: In ITC the heat of successive injections is recorded.

B1: MavC (residues 7–384) (enzyme)
chain: EKTGLHVHEKIKHMVKNYGTMITGIPAEILGQNEAEISVGYVKKMGNMKENIAEVVRKSEMTQPTNSCGKASNEVCDLLLGTEGASEFEKSSYQVLSGDGSNLKGSLPNKNLLVRVEMDRFNAPQKYQKIKREEFNPETAEKNKIYLLEDQLVYLDIFGKVIDLGQTSDTCHRLFNAITTPFYQNYILYDEYIDPEESAEEAAMFEMGEIVKAKMKNIDCWTATHSFTIFVPESDSEDTRTLYPYQAYWTSHTLQQWFSGDKDEKLSRLGIDGYIEKLALLGTTTDSKIRSSIYGELFSPPGKEHVFCTGMNEKFSPLRVKFKVTEVNPEIALQNLEEVQEFIDTNYPGENAKDQCELYKIKAQEAMTKQLEMRLLIE
For B1, the Kd is 5.52 nM and 11 nM.

In general, Kd refers to the constant that tells how readily two partners part at equilibrium. The low end stands for tighter binding, the high end for weaker binding.
